Measured values from several laboratories, pooled; numbers as filed in NIAID ChemDB.

Common to all: host cell toxicity; cell line: MT-4; measure: CC50

CCn: concentration that lowers growth or viability of the cells by n%. Lines come from different laboratories, so protocols vary. Blank or dashed fields: not listed here.

SMILES	method	value
CC(C)c1c(C(O)c2ccccc2)cn(Cc2ccncc2)c1Sc1cc(Cl)cc(Cl)c1	MTT	20 µM
CC(C)c1s/c(=N\S(=O)(=O)c2cccc([N+](=O)[O-])c2)n(C)c1C#N	MTT	>25 µM
CCOCn1c(SCC(N)=O)nc(CC)c1CC1CCCCC1	MTT	>100 µM
CCOCc1cn(Cc2ccncc2)c(Sc2ccccc2)c1C(C)C	MTT	180 µM
COc1ccccc1C(=O)N1CCC(NC(=O)c2cc(O)c(O)c(O)c2)CC1	MTT	147.2 µM
CC(C)Nc1cccnc1N1CCN(C(=O)c2cc3cc(NS(C)(=O)=O)ccc3[nH]2)CC1	MTT	>3.827 µM
Cc1cn([C@@H]2O[C@H](COC(=O)C(C)(C)C)C3(OS(=O)(=O)C=C3N)[C@H]2O[Si](C)(C)C(C)(C)C)c(=O)[nH]c1=O	-	85 µM
CC(C)c1c(C(=O)c2ccccc2)cn(Cc2ccncc2)c1Sc1cc(Cl)cc(Cl)c1	MTT	45 µM
CCCCC/C=C\C/C=C\CCCCCCCC(=O)OCC1=C[C@H]2[C@@H]3C(C)(C)[C@]3(OC(C)=O)[C@H](O)[C@@H](C)[C@]2(O)[C@@H]2C=C(C)C(=O)[C@@]2(O)C1	-	>62.5 µg/mL
Cc1cc(C)cc(Cc2[nH]c(=S)[nH]c2C(C)C)c1	MTT	38.61 µM
CN(C)S(=O)(=O)N1CCC(NC(=O)c2cc(O)c(O)c(O)c2)CC1	MTT	34.8 µM
C1CNCCNCCCNCCNC1	-	1248 µM
COC(=O)c1c(C(C)C)s/c(=N\S(=O)(=O)c2cccc([N+](=O)[O-])c2)n1C	MTT	>25 µM
CCCC(=O)OCC1=C[C@H]2[C@@H]3C(C)(C)[C@]3(OC(=O)CCC)[C@H](OC(=O)CCC)[C@@H](C)[C@]2(O)[C@@H]2C=C(C)C(=O)[C@]2(O)C1	-	>62.5 µg/mL
CC(C)[C@H](NC(=O)CNC(=O)OCc1ccccc1)C(=O)N[C@@H](Cc1ccccc1)C(=O)C(F)(F)CCc1ccccc1	-	>100 µM
CCOCn1c(SCC(N)=O)nc(C(C)C)c1Cc1ccccc1	MTT	>100 µM
CC(C)c1s/c(=N\S(=O)(=O)c2cccc([N+](=O)[O-])c2)n(C)c1Cl	MTT	24 µM
C1CNCCNCCCN(CCCN2CCCNCCNCCCNCC2)CCNC1	-	>622 µM
CCOC(=O)c1cn(Cc2ccncc2)c(Sc2cc(Cl)cc(Cl)c2)c1C1CCCCC1	MTT	95.1 µM
CC(=O)NC1=CS(=O)(=O)OC12[C@@H](COCc1ccccc1)O[C@@H](n1cc(C)c(=O)[nH]c1=O)[C@@H]2OC(C)=O	-	>160 µM
CCCCCCCCCCCC(=O)O[C@@]12[C@H](OC(=O)C(C)CC)[C@@H](C)[C@@]3(O)[C@@H](C=C(CO)C[C@]4(O)C(=O)C(C)=C[C@@H]34)[C@@H]1C2(C)C	-	>62.5 µg/mL
Cc1cn([C@@H]2O[C@H](CO[Si](c3ccccc3)(c3ccccc3)C(C)(C)C)C3(OS(=O)(=O)C=C3N)[C@H]2O[Si](C)(C)C(C)(C)C)c(=O)n(C)c1=O	-	42 µM
Cc1ccnc2c1NC(=O)c1cccnc1N2C1CC1	MTT	>200 µM
CC(C)(C)OC(=O)N[C@@H](Cc1ccccc1)C(=O)N[C@H](Sc1ccccc1)C(=O)NCc1ccccc1	trypan blue	50 µM
COc1cccc(C(=O)N2CCC(NC(=O)c3cc(O)c(O)c(O)c3)CC2)c1	MTT	76.6 µM
CCOCn1c(SCC(N)=O)nc(C(C)C)c1CC1CCCCC1	MTT	>100 µM
CC(C)Nc1cccnc1N1CCN(C(=O)c2cc3cc(NS(C)(=O)=O)ccc3[nH]2)CC1	MTT	>3.827 µM
CC(C)c1c(C(C)O)cn(Cc2ccncc2)c1Sc1cc(Cl)cc(Cl)c1	MTT	>200 µM
CCCCCCCCCC(=O)O[C@@]12[C@H](OC(C)=O)[C@@H](C)[C@@]3(O)[C@@H](C=C(COC(C)=O)C[C@]4(O)C(=O)C(C)=C[C@@H]34)[C@@H]1C2(C)C	-	>31.3 µg/mL
Cc1ccc(S(=O)(=O)N2CCC(NC(=O)c3cc(O)c(O)c(O)c3)CC2)cc1	MTT	66.1 µM
CCn1c(Cc2ccccc2)c(C(C)C)[nH]c1=S	MTT	40.72 µM
CC(C)c1s/c(=N\S(=O)(=O)c2cccc([N+](=O)[O-])c2)n(C)c1C(N)=O	MTT	>25 µM
Cc1cn([C@@H]2O[C@H](COCc3ccccc3)C3(OS(=O)(=O)C=C3NC(=O)c3ccccc3)[C@H]2OC(=O)c2ccccc2)c(=O)[nH]c1=O	-	89 µM
CCn1c(C)c(C(C)(C)C)s/c1=N\S(=O)(=O)c1cccc([N+](=O)[O-])c1	MTT	11.5 µM
Cc1cc(C)cc(Cc2c(C(C)C)nc(SCC(N)=O)n2COCc2ccccc2)c1	MTT	29.43 µM
CC(C)[C@H](NC(=O)NCc1ccccn1)C(=O)N[C@@H](Cc1ccccc1)C(=O)C(F)(F)CCc1ccccc1	-	>100 µM
Cc1cn([C@@H]2O[C@H](CO[Si](C)(C)C(C)(C)C(C)C)C3(OS(=O)(=O)C=C3N)[C@H]2O[Si](C)(C)C(C)(C)C)c(=O)n(C)c1=O	-	29 µM
CC(C)Cc1c(C(C)C)s/c(=N\S(=O)(=O)c2cccc([N+](=O)[O-])c2)n1C	MTT	21.4 µM
N#Cc1cc(Cl)cc(Oc2cc(OCc3[nH]nc4ccncc34)ccc2Cl)c1	-	>8.3 µM
CCc1s/c(=N\S(=O)(=O)c2cccc([N+](=O)[O-])c2)n(C)c1C	MTT	>25 µM
NC(=O)OCc1cn(Cc2ccncc2)c(Sc2cc(Cl)cc(Cl)c2)c1C1CCCCC1	MTT	119.7 µM
CC(C)c1cn(C)/c(=N/S(=O)(=O)c2cccc([N+](=O)[O-])c2)s1	MTT	>25 µM
NC(=O)OCc1cn(Cc2ccncc2)c(Sc2cc(Cl)cc(Cl)c2)c1C1CC1	MTT	121.7 µM

The last 2 rows once more:

SMILES	method	value
CC(C)c1cn(C)/c(=N/S(=O)(=O)c2cccc([N+](=O)[O-])c2)s1	MTT	>25 µM
NC(=O)OCc1cn(Cc2ccncc2)c(Sc2cc(Cl)cc(Cl)c2)c1C1CC1	MTT	121.7 µM